From the supplement of paper PMC9931576
Human monoclonal antibodies against the spike receptor-binding domain (heavy:light variable regions). IC50 against pseudoviruses bearing the spike of naturally observed variants; lower = stronger; >10 µg/ml means not reached at the top dose. No active / inactive call. The stated detection limit is 0.0005 µg/ml; values near or below 0.001 µg/ml lie at the floor of the assay.

Key:
Experiment in all cases: pseudovirus neutralization IC50; higher = weaker neutralization
[1] = molecular target: SARS-CoV-2 Omicron BA.1 spike pseudovirus
Description: (§1)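 Single-round VSV luciferase pseudovirus mixed with antibody dilutions for 1 h and put on Huh-7 cells for about a day; IC50 from the dose curve.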

[2] = molecular target: SARS-CoV-2 Omicron BA.2 spike pseudovirus
Description: as §1

[3] = molecular target: SARS-CoV-2 Omicron BA.2.75 spike pseudovirus
Description: as §1

[4] = molecular target: SARS-CoV-2 Omicron BA.5 spike pseudovirus
Description: as §1

[5] = molecular target: SARS-CoV-2 Omicron BQ.1.1 spike pseudovirus
Description: as §1

[6] = molecular target: SARS-CoV-2 Omicron XBB spike pseudovirus
Description: as §1

[7] = molecular target: SARS-CoV-2 early D614G spike pseudovirus
Description: as §1

Row | Binder | pseudovirus neutralization IC50 [1] [mg/L] | pseudovirus neutralization IC50 [2] [mg/L] | pseudovirus neutralization IC50 [3] [mg/L] | pseudovirus neutralization IC50 [4] [mg/L] | pseudovirus neutralization IC50 [5] [mg/L] | pseudovirus neutralization IC50 [6] [mg/L] | pseudovirus neutralization IC50 [7] [mg/L]
1 | BD57-0410 (protein) chain 1: EVQLVESGGGLVKPGGSLRLSCAASGFTFSNAWMTWVRQAPGTGLEWVGRIKSKIDGGTTDYAASVKGRFTISRDDSKNRLYLQMNSLKTEDTAVYYCATVSPLQFWLVGEDNALDIWGQGTMVTVSP chain 2: DIVLTQSPGTLSLSPGERATLSCRASQSVSSSYLAWYQQKPGQAPRLLIYGALSRAAGIPDRFSGSGSGTDFTLTITRLEPEDFAVYYCQHYDISSQTFGQGTKVEIK | 9.64 | 7.18 | 9.5 | 7.56 | > 10 | > 10 | > 10
2 | BD57-0366 (protein) chain 1: QVQLVQSGAEVKKPGSSVKVSCKASGGTFRNYAISWVRQAPGQGLEWMGGIMPMYHTSEYAEKFQGRVTFMADESTSTAYMELSSLRSEDTAVYYCARDLGHSYGRPSYYYYIDVWGKGTTVTVSS chain 2: QAVVTQEPSLTVSPGGTVTLTCGSSTGAVTSGHYPSWFQQKPGQAPRTLIYDTYNKHSWTPARFSGSLLGGKAALTLSGAQPEDEADYYCFFSYVGGRPGVFGGGTKLTVL | 0.0189 | 0.0191 | 0.0577 | 0.0077 | > 10 | > 10 | 0.0111
3 | BD57-0368 (protein) chain 1: QVQLVQSGAEVKKPGASVKVSCKASGYSFTSHYMHWVRQAPGQGLEWMGLINPSGGTTSYTQKFRGRVSMTRDTSTGTVFLELSSLRSDDTAVYYCARDGGSCSSDRCDPADWFDPWGQGTLVTVSS chain 2: SYVLTQPPSVSVAPGQTARITCGGDDIGSKSVHWYQQKPGQAPVLVIYYDTDRPSGIPERFSGSNSGSTATLTISRAEAGDEADYYCQVWDGSSDHHYVFGTGTKVTVL | 2.74 | 3.4 | 5.51 | 5.57 | > 10 | 5.18 | 7.56
4 | BD57-0362 (protein) chain 1: EVLLVESGGGLVKPGGSLRLSCAASGLAFSSYSINWVRQAPGKGLEWVSSISSTGSSIYYADSVKGRFTISRDNAKNSLYLQMNSLRAEDTAVYYCARDQGNLYGSGRGAFGYWGQGTLVTVSS chain 2: QSALTQPASVSGSPGQSITISCTGTTSDIGSYTFVSWYQQHPGKAPQLIIYDVSDRPSGVSNRFSGSKSGNTASLTISGLQAEDEADYYCGSYTGSSLLFGGGTKLTVL | > 10 | > 10 | > 10 | > 10 | > 10 | > 10 | > 10
5 | BD57-0389 (protein) chain 1: QVQLVESGGGVVQPGRSLRLSCAASGFTFSNYGMHWVRQAPGKGPEWVALISYDGSDKYYGDSVKGRFTISRDSSKNTLFLQMNSLRAEDTAVYYCAKGPWYSSSWEYYFEYWGQGTLVTVSS chain 2: DIQMTQSPSSLSASLGDRVTITCRASQTISTFLNWYQQKPGKAPNLLIYDVSSLQSGVPSRFSGSGSGTDFTLTISSMQPEDFATYYCQQSYSIPLTFGGGTKLEIK | 1.49 | 3.16 | 3.28 | 3.76 | 1.33 | 1.21 | > 10
6 | BD57-0393 (protein) chain 1: QVQLVESGGGVVQPGRSLRLSCAASGFTFKNYGMHWVRQAPGKGPEWVALISYDGGDKYYGDSVKGRFTISRDSSKNTLFLQMNSLRAEDTAVYYCAKGPWYSSSWEYYFEYWGQGTLVTVSS chain 2: DIQMTQSPSSLSASLGDRVTITCRASQTIGTFLNWYQQKPGKAPNLLIYDASSLQSGVPSRFSGSGSGTDFTLTISSLQPEDFATYYCQQSYSIPLTFGGGTKMEIK | 3.74 | 1.65 | 1.67 | 3.21 | 3.74 | 1.77 | > 10
